# In US20150322120A1, “SODIUM CHANNEL SENSITIVE CONOPEPTIDES AND ANALOGS, INCLUDING COMPOSITIONS AND METHODS THEREOF” (University of Utah Research Foundation, published 2015):
# Positions count from the first letter of the chain named. Numbers in names are those of the source.
# B1: C. geo1[des-Ser34] (peptide)
# peptide: GWCGDAGATCGKLRLYCCSGFCDCYTKTCKDKSA
# modifications: O is hydroxyproline; peptide-GSH adduct at Cys-24; carboxylated C-terminus
# B2: C.geo1[C24S] (peptide)
# peptide: GWCGDAGATCGKLRLYCCSGFCDSYTKTCKDKSSA
# B3: C.geo1[K27G] (peptide)
# peptide: B2 peptide with S24C, K27G
# B4: C.geo1[C24K] (peptide)
# peptide: B2 peptide with S24K
# B5: C.geo1[C24E] (peptide)
# peptide: B2 peptide with S24E
# Legend:
# [1] = molecular target: T1, human NaV1.7 voltage-gated sodium channel (human, UniProt Q15858); assay: cell-based or functional assay
# [2] = molecular target: T1, human NaV1.7 voltage-gated sodium …; assay: cell-based or functional assay; remark: listed apart in the source
Binder,"IC50, concentration response curve against hNaV1.7 (QPatch assay) [1]","IC50, block of hNaV1.7 [2]"
B1,1800 nM,–
B2,–,> 10000 nM
B3,–,1600 nM
B4,–,> 10000 nM
B5,–,> 10000 nM
